Experimental data: patent US20240310360A1, “METHOD OF […] RESPONSE OF CELL GROUP TO TEST SUBSTANCE” (CANON KABUSHIKI KAISHA, priority 2023, published 2024)

What was measured:
PBMCs [1] = settings: PBMCs used in Example 1; confirmed in advance by the manufacturer; cited from earlier work
PBMCs [2] = test: Autofluorescence imaging FAD/NADH ratio of PBMCs after antigen stimulation (Example 1); assay type: cell-based; settings: 1 hour after stimulation, peptide solution 10 nM

Flu Matrix 1 (58-66) Peptide: peptide solution manufactured by Cellular Technology Limited; peptide that binds directly to an MHC
reactivity of the PBMCs to the peptide (ELISpot test) (PBMCs [1]): react strongly
FAD/NADH ratio of cell group added with test substance compared with cell group without addition (PBMCs [2]): lower in FAD/NADH ratio

Influenza A PA (46-54) Peptide: peptide solution manufactured by Cellular Technology Limited; peptide that binds directly to an MHC (FMYSDFHFI; UniProt P03433 46-54, looked up, fragment)
reactivity of the PBMCs to the peptide (ELISpot test) (PBMCs [1]): hardly react
